Source: PMC11229316, “Insights into the molecular mechanism of ParABS system in chromosome partition by HpParA and HpParB” (Nucleic Acids Research, 2024)
Construct, isoform or probe ends are uncertain for at least one entry. For some of these results: Negatives hold for the conditions tested. For some of these results: The comparison behind a weaker result is the experiment's own reference, which may not be listed here. For some of these results: Protein sequences can lack the tags named with them.

Tests used:
[1] = target: T1, Ct-HpParB (Helicobacter pylori) (UniProt O25758); assay: EMSA; details: 2 mM CTP, specific complex only with excess protein, EMSA: 20 mM Tris-HCl pH 8.0, 50 mM NaCl, 11 mM imidazole, 5 mM MgCl2, 10% glycerol, 37 C, gel at 4 C, recombinant protein, label: none (GelRed stain)
T1 sequence (looked up, limits assumed): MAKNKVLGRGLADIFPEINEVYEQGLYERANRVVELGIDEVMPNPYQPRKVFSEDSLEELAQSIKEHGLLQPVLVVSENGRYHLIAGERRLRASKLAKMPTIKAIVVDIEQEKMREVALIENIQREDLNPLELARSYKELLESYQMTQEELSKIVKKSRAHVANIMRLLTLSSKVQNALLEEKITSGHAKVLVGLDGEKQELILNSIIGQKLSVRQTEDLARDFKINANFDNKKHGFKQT

[2] = tested on: HpParA (HpSoj) + HpParB (HpSpo0J); assay: EMSA; details: 2 mM CTP, with Cy3-parS (N3), NAC1 not observed, HpParB-DNA complex and free DNA seen, EMSA: 20 mM Tris-HCl pH 8.0, 50 mM NaCl, 11 mM imidazole, 5 mM MgCl2, 10% glycerol, 37 C, gel at 4 C, recombinant protein
[3] = target: T2, HpParB (HpSpo0J) (Helicobacter pylori) (UniProt O25758); assay: fluorescence polarization; details: no CTP, Kd could not be determined; FP: 20 mM Tris-HCl pH 8.0, 175 mM NaCl, 5 mM MgCl2, 10% glycerol, 1 mM ATP or CTP, 5 nM DNA, room temperature; recombinant protein
T2 sequence (looked up, limits assumed): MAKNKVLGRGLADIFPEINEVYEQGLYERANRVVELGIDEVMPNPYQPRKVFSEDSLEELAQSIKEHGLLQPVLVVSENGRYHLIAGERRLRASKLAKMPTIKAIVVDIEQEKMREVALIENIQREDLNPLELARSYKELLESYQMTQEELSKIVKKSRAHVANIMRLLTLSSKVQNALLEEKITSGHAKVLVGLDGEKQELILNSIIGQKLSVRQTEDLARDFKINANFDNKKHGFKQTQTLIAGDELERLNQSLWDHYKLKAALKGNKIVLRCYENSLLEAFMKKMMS

[4] = target: T2, HpParB (HpSpo0J) (Helicobacter pylori); assay: EMSA; details: no CTP, minimal binding; EMSA: 20 mM Tris-HCl pH 8.0, 50 mM NaCl, 11 mM imidazole, 5 mM MgCl2, 10% glycerol, +/- 2 mM CTP, 37 C, gel at 4 C; recombinant …; label: none (GelRed stain)

AGGGTGTTCCACGTGAAACAGGGA (double strand) [parS 24-bp]
binding result [1]: binds more weakly

TCCTATGAATTGCTATGGCAAGCG (double strand) [Cy5/Cy3-labeled nsDNA 24-bp]
binding result [2]: no binding | binding result [3]: binds more weakly

TCCTATGAATTGCTATGGCAAGCG (double strand) [nsDNA 24-bp]
binding result [4]: binds more weakly
